Columns and labels:
Type in all cases: biochemical
[1] = biological target: A/Fukui H3N2 E119V (oseltamivir-resistant) NA (Influenza A virus, UniProt A0A0F6NYK2, E119V); conditions: read-out: IC50 in the enzyme inhibition assay, A/Fukui H3N2 E119V
[2] = biological target: B/Florida E119D (B/Florida/4/2006 mutant 1 E117D) NA (Influenza B virus, UniProt J7JZT1, E117D)
[3] = biological target: Auckland pH1N1 E119K (A/Auckland/3/2009 mutant 1) NA (Influenza A virus, UniProt C3W5S3, E119K); conditions: pH 1

Zanamivir was tested, and the IC50 [1] was 0.0034 µM, the IC50 [2] was over 10 µM and the IC50 [3] was over 100 µM.

Reference: patent US9949945B2, “3′ equatorial-fluorine-substituted neuraminidase inhibitor compounds, compositions and methods for the use thereof as anti-virals” (THE UNIVERSITY OF BRITISH COLUMBIA, priority 2012, dated 2018)
